## Library screen at single concentrations

Source: ChEMBL document CHEMBL3988442, “University of Dundee, Small-Polar-MMV Screening Library” (2021).

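Whole-cell growth test on Mycobacterium tuberculosis, read after 3 days in glucose-containing 7H9 medium; the read-out is not stated. Compounds at 500 µM. Direction is inferred from retests: higher values go with more growth inhibition. Of about 18,000 compounds tested this way, about 1,400 (7.9%) reached 50% or more in at least one test.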

Results are given as percent effect.
The record does not define 0% and 100%; most values in the screen are far below 50% and negative numbers occur (in some assays of this library far below -100).
Many other results are left out here, so strong results are more common than in the screen.

structure	Percent Effect
Cc1cc2c(cc1S(=O)(=O)N1CCCC(N)C1)OCO2 (centres unmarked)	50.45%
Cn1nc2c(c1CN)CCCC2	-4.323%
C=C(C)CN(CC)C(=O)CN(C)CCN1CCOCC1	12.11%
CC(C)Oc1cc(CNC2CC2)ccn1	18.55%
CN1CCC(CN(C)C(=O)c2cccc(F)c2F)C1 (centres unmarked)	8.893%
Cn1cc(CC(=O)Nc2ccc(I)cn2)cn1	55.53%
COc1ccc(CC(=O)NCC2CCCNC2)cc1F (centres unmarked)	-1.871%
C[C@@H](NC(=O)Nc1nccn(C)c1=O)c1ccccc1	23.97%
CNc1ncccc1F	-4.463%
CSc1cccc(CN(C)C(=O)CNC2CC2)c1	77.28%
O=C(NCC(O)c1ccc(Cl)cc1)Nc1ccccn1 (centres unmarked)	75.71%
Cc1nn(C)c(Cl)c1C(=O)NCc1ccccn1	22.26%
Cc1nn(C)c(C)c1CC(N)=O	6.181%
NCCc1nc(-c2ccc(F)cc2)c[nH]1	-9.672%
Cc1noc(-c2ccc(CN)cc2)n1	39.56%
CCOCCOc1cccc(NC(=O)NCCN)c1	4.84%
COc1cn(C)c(C(=O)Nc2cccnc2)cc1=O	7.806%
NC1CCN(c2ncccc2F)C1 (centres unmarked)	73.17%
CCn1ccc(CN2CC3(CCNCC3)OC2=O)n1	10.27%
COCCN(Cc1ccccn1)C(=O)CC1CCNC1 (centres unmarked)	6.96%
CC(CO)NC(=O)NCc1ccccc1 (centres unmarked)	14.55%
O=C(C1CC1)N1CCCC(CN2CCOCC2)CC1 (centres unmarked)	8.394%
C/C=C/c1ccc(OCCNC)c(OC)c1	5.108%
COC(=O)C(O)CNc1ccc(C(F)(F)F)cn1 (centres unmarked)	59.04%
CSc1cncc(NCCOc2cccnc2)n1	37.66%
Clc1cnn(CCN2CCCC3(CCOCC3)C2)c1	1.184%
Cc1cc(NC(=O)CSCC(=O)OC2CCOC2)no1 (centres unmarked)	2.951%
CC(NCC(=O)N1CCNC1=O)c1ccc(Cl)s1 (centres unmarked)	11.74%
Cc1cc2cccc(C(=O)NCCOCCO)c2o1	-6.827%
CC(C)(C)OC(=O)N1CCC(CN)C(F)(F)C1 (centres unmarked)	-6.268%
CCOCCC1(N)CCCC1	9.705%
CC(C)C(=O)NCCNCc1cccc(C#N)c1	-3.846%
CCS(=O)(=O)NCCCn1ccnc1C(C)C	4.805%
O=C(CCN1CCCC(O)C1)N1CCc2ccccc21 (centres unmarked)	-7.817%
CNC(=O)CCCNC(=O)OC(C)(C)C	11.93%
CC(=O)c1c(C)cccc1NC(=O)CN1CCCC1=O	11.75%
O=C(CSc1cnn[nH]1)N1CCc2ccccc2C1	49.95%
Cc1cccc(OCC(O)CNC(C)C)c1 (centres unmarked)	10.64%
OCC(O)CSCCc1ccccc1Cl (centres unmarked)	57.09%
CNC(=O)C(C)(C)CNC(=O)Nc1ncc(C)cc1Br	-4.773%
CN(CC(N)=O)Cc1ccc(S(=O)(=O)N2CCCC2)o1	31.93%
COc1cc(F)ccc1NC(=O)c1ccncc1	35.54%
OCCC1COc2ccc(F)cc2N1 (centres unmarked)	51.56%
Cc1ccoc1C(=O)N1CCC2(CCC2O)CC1 (centres unmarked)	14.52%
CN(CC(=O)NC(C)(C)C)C(=O)c1sccc1Cl	14.44%
COC(=O)Nc1cc(OC)c(OC)cc1C(=O)OC	12.42%
CC(C)NC(=O)Cn1nnc(-c2cccs2)n1	4.799%
Nc1noc(-c2ccc(Cl)cc2)n1	-0.09351%
NS(=O)(=O)N(Cc1cccs1)C1CC1	20.6%
NCCc1n[nH]c(=O)n1-c1ccc(Cl)cc1	15.82%
O=C(CC1COCCN1Cc1ccon1)c1cccs1 (centres unmarked)	55.18%
CN(CCCNC(=O)C1CCC(=O)N1)c1ccccc1 (centres unmarked)	13.56%
CC(CNC(=O)c1cc(Br)c[nH]1)N(C)C (centres unmarked)	4.031%
CNCc1nnc(C2CC2)n1C	-9.601%
CC(=O)NC(c1nc(-c2ccncc2)no1)C(C)C (centres unmarked)	27.23%
CCCn1nnnc1CSc1ccccc1C#N	38.01%
CNCc1cnn(Cc2ccccc2)c1	-2.33%
NCCCc1ccccn1	54.67%
Cc1ccc(CNC(=O)c2cnn(C)c2)cc1F	60.28%
NCc1ccc(S(=O)(=O)N2CCOCC2)cc1	7.558%
CC1c2ccsc2CCN1CCS(C)(=O)=O (centres unmarked)	25.17%
CCNC(=O)C1CCN(Cc2cc(C)no2)CC1	1.978%
CC(C)SCC(=O)Nc1cccnc1-n1cccn1	41.88%
CC(C)(C)C(=O)N1CCN(CCCC#N)CC1	-1.287%
CC(C)c1cc(C(=O)N(C)C(C)c2ccon2)on1 (centres unmarked)	59.56%
CN1N=C(c2ccc3c(c2)OCCO3)CCC1=O	12.95%
Cc1cc(OCC(=O)NCc2ccccc2F)no1	65.06%

Some entries from above, unchanged:

structure,Percent Effect
O=C(C1CC1)N1CCCC(CN2CCOCC2)CC1 (centres unmarked),8.394%
CCS(=O)(=O)NCCCn1ccnc1C(C)C,4.805%
OCCC1COc2ccc(F)cc2N1 (centres unmarked),51.56%
Cn1nc2c(c1CN)CCCC2,-4.323%